The data set concerns the molecule itself. Briefly: negative-stain electron microscopy.

B1: lysenin^V88C/Y131C (natural protein)
chain: MSAKAAEGYEQIEVDVVAVWKEGYVYENRGSTSVDQKITITKGMKNVNSETRTVTATHSIGSTISTGDAFEIGSVEVSYSHSHEESQCSMTETEVYESKVIEHTITIPPTSKFTRWQLNADVGGADIEYMCLIDEVTPIGGTQSIPQVITSRAKIIVGRQIILGKTEIRIKHAERKEYMTVVSRKSWPAATLGHSKLFKFVLYEDWGGFRIKTLNTMYSGYEYAYSSDQGGIYFDQGTDNPKQRWAINKSLPLRHGDVVTFMNKYFTRSGLCYDDGPATNVYCLDKREDKWILEVVG
On to B1, for which the binding result is listed as “binds”.

For the origin of these results see article PMC6722932 (Toxins, 2019).
